Consider 2 compounds from article PMC11904993, “Humanized Candida and NanoBiT Assays Expedite Discovery of Bdf1 Bromodomain Inhibitors With Antifungal Potential” (Advanced Science, 2025).

Sequences of proteins named here, by UniProt entry; tags and fusion partners are left off. Residues count along the entry.
UniProt Q6FWV7, 100-228 limits assumed: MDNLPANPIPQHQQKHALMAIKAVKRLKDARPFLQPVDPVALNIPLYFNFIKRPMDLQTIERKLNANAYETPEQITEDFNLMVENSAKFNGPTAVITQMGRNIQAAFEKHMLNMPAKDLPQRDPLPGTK

The experiment addresses CgBdf1 BD1 (Candida glabrata, UniProt Q6FWV7). Description: HTRF assay, inhibition of H4ac4 peptide binding. The conditions noted are these: Fig 1D/2A original data; single experiments Exp1-3. Also noted: species or system C. glabrata.

Not every entry of the source has a single result; some have several. This is not the full list of results. There may be further records. Results that share an entry differ for a reason that is not stated; they may come from other doses, times, organisms or constructs than stated.

Consider `COc1cccc(NC(=O)Cn2ccc3ccc(-c4nnc(C)o4)cc32)c1`, for which the “pIC50 CgBD1” value is 5.375, 6.029, 5.387.

For the compound `CCCN(CC1CC1)C(=O)C1C(c2cc(OC)c(OC)c(OC)c2)c2cc3c(cc2C(O)C1CO)OCO3` (centres unmarked), the “pIC50 CgBD1” value is recorded as 6.449, 6.662, 6.248.
